In patent US20190321329A1, “FORMULATION FOR THE TREATMENT OF ACNE” (published 2019):

What was measured:
[1] = test system: Staphylococcus epidermidis (ATCC 12228); assay: Time-Kill Procedure according to ASTM E2315, S. epidermidis; conditions: 1 wt % suspension in water, contact 30 minutes, 2 and 14 hours, FIG. 2
[2] = test system: Propionibacerium acnes (ATCC 6919); assay: Time-Kill Procedure according to ASTM E2315, P. acnes; conditions: 1 wt % suspension in water, contact 30 minutes, 2 and 14 hours, FIG. 3
[3] = test system: Staphylococcus aureus (ATCC 6538); assay: Time-Kill Procedure according to ASTM E2315, S. aureus; conditions: 1 wt % suspension in water, contact 30 minutes, 2 and 14 hours, FIG. 1

Q: What does the source list for `Cc1ccc(C(=O)OOC(=O)c2ccc(C)cc2)cc1`?
A: number of colony forming units (CFU) per ml, speed of action compared with BPO [1]: acts quicker on these bacteria than dibenzoyl peroxide (BPO); number of colony forming units (CFU) per ml, speed of action compared with BPO [2]: acts quicker on these bacteria than dibenzoyl peroxide (BPO); number of colony forming units (CFU) per ml, speed of action compared with BPO [3]: acts quicker on these bacteria than dibenzoyl peroxide (BPO)
